Reference: article PMC4318582, “Chemotherapy of Second Stage Human African Trypanosomiasis: Comparison between the Parenteral Diamidine DB829 and Its Oral Prodrug DB868 in Vervet Monkeys” (PLoS Neglected Tropical Diseases, 2015)

Assay: Haematological changes after treatment of infected vervet monkeys
Assay type: in vivo, vervet monkey

CONC(=N)c1ccc(-c2ccc(-c3ccc(C(=N)NOC)cn3)o2)nc1 [DB868, 2,5-bis[5-(N-methoxyamidino)-2-pyridyl]furan]
time for RBC counts to recover to baseline levels upon treatment (DB829 IM or DB868 orally): 1–2 months | time for platelet cell counts to recover to baseline (pre-infection) levels (post-LDD of DB868): Within one week
